Legend:
[1] = tested on: CC(C)(COP(=O)(O)OP(=O)(O)OC[C@H]1O[C@@H](n2cnc3c(N)ncnc32)[C@H](O)[C@@H]1OP(=O)(O)O)[C@@H](O)C(=O)NCCC(=O)NCCSC(=O)C[C@@](C)(O)CC(=O)O; assay: purified protein; settings: 50 mM HEPES-K pH 8.0, 2 mM EDTA, 0.3 mM DTNB, 37 °C
[2] = tested on: CCCCCC(=O)SCCNC(=O)CCNC(=O)[C@H](O)C(C)(C)COP(=O)(O)OP(=O)(O)OC[C@H]1O[C@@H](n2cnc3c(N)ncnc32)[C@H](O)[C@@H]1OP(=O)(O)O; assay: purified protein; settings: 50 mM HEPES-K pH 8.0, 2 mM EDTA, 0.3 mM DTNB, 37 °C

PA5202 (Pseudomonas aeruginosa PAO1; S105A)
Km [1]: 0.50 ± 0.04 mM | kcat [1]: 2.7 s⁻¹ | kcat/Km [1]: 5000 M⁻¹ s⁻¹

PA5202 (Pseudomonas aeruginosa PAO1; S54A)
Km [1]: 0.10 ± 0.01 mM | kcat [1]: 0.5 s⁻¹ | kcat/Km [1]: 5000 M⁻¹ s⁻¹

PA5202 (Pseudomonas aeruginosa PAO1; R43A)
Km [2]: 0.60 ± 0.05 mM | kcat [2]: 1.1 s⁻¹ | kcat/Km [2]: 2000 M⁻¹ s⁻¹

PA5202 (Pseudomonas aeruginosa PAO1; R41A)
Km [1]: 0.40 ± 0.06 mM | kcat [1]: 1.3 s⁻¹ | kcat/Km [1]: 4000 M⁻¹ s⁻¹

PA5202 (Pseudomonas aeruginosa PAO1; S65A)
Km [1]: 0.50 ± 0.04 mM | kcat [1]: 3.9 s⁻¹ | kcat/Km [1]: 7000 M⁻¹ s⁻¹

PA5202 (Pseudomonas aeruginosa PAO1; R104A)
Km [1]: 0.40 ± 0.03 mM | kcat [1]: 1.2 s⁻¹ | kcat/Km [1]: 3000 M⁻¹ s⁻¹

PA5202 (Pseudomonas aeruginosa PAO1; R103A)
Km [1]: 1.0 ± 0.1 mM | kcat [1]: 1.8 s⁻¹ | kcat/Km [1]: 2000 M⁻¹ s⁻¹

PA5202 (Pseudomonas aeruginosa PAO1; H48A)
Km [1]: 0.20 ± 0.02 mM | kcat [1]: 1.1 s⁻¹ | kcat/Km [1]: 5000 M⁻¹ s⁻¹

PA5202 (Pseudomonas aeruginosa PAO1; R85A)
Km [1]: 0.50 ± 0.05 mM | kcat [1]: 2.1 s⁻¹ | kcat/Km [1]: 4000 M⁻¹ s⁻¹

From paper PMC3836677 (The Biochemical journal, 2012)
